Test results published in paper PMC9734383 (2022).

Key:
[1] = molecular target: H16 HA (recombinant HA of the panel) (influenza A virus (strain  in …)); experiment: BLI
[2] = molecular target: T1, H13 HA (recombinant HA of the panel) (influenza A virus (strain  in …)); experiment: BLI
T1 chain: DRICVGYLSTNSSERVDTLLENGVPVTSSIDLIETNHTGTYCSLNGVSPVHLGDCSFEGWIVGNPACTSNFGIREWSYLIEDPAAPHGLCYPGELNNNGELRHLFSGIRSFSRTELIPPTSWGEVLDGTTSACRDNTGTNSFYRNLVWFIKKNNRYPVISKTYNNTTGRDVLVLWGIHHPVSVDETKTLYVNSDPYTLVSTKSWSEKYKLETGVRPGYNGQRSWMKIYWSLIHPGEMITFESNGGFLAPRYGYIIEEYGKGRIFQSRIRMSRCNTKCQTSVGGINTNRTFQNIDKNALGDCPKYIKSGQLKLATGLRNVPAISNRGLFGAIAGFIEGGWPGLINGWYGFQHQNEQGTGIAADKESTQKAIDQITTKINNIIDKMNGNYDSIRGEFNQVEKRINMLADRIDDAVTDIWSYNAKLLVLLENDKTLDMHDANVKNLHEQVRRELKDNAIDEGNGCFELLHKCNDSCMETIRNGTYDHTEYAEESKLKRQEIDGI

B1: PN-SIA28 Fab (Fab, V domains shown)
VH: QVQLVESGGGVVQPGRSLRLSCAASGFPFSSYGMHWVRQAPGKGLEWVAGVSYDGSYKYYADSVKGRFTISRDSSKSTLYLQMNSLRPEDTAVYYCARPSAIFGIYIILNGLDVWGQGTTVTVSS
VL: EIVLTQSPSSVSASVGDRVTITCRATQGISSWLAWYQQKPGKPPKLLIFGASSLQSGVPSRFSGSGSGTDFTLTISSLQPEDFATYFCQQAHSFPLTFGGGTKVEIK
modifications: biotinylated (in the BLI assay)
[1]
  Kd: 8.83 µM
[2]
  Kd: 2.54 µM
